Laboratory results: PubChem BioAssay AID624099 (ICCB-Longwood, 2012)
This is one part, drawn at random, of about 21,000 reagents. Of all reagents, 497 (2.4%) got an active call. 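Higher z means weaker E2 silencing; only reporter increases were scored, and knock-downs that hurt cell survival may mask genuine repressor factors.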 The numbers tell different reagents against one gene apart.

- Test: 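Knock-downs relieving repression by E2 of an HPV18 LCR luciferase reporter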 (primary screen)
- System: human C33A cervical carcinoma cells (HPV-negative) stably expressing BPV1 E2 and an HPV18 LCR luciferase reporter
- Knock-down reagent: siRNA pool against human genes, 40 nM
- Duration: 72 h
- Measured: 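Per-well luciferase luminescence, z-scored on each plate against the plate mean and SD with control wells left out, then averaged across three replicate plates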
- Direction: mean z-score and z-score: higher = stronger reporter signal, weaker E2 silencing
- Call rule: 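Mean z ≥ 2 together with z ≥ 2 in two or more of the three replicates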

target,pool no.,mean z-score,"z-score, replicate A","z-score, replicate B","z-score, replicate C",activity call
H2AC17 (H2A clustered histone 17),1,-0.02,-0.21,0.32,-0.16,inactive
SMIM10L2A (small integral membrane protein 10 like 2A),1,-0.24,-0.38,-0.13,-0.23,inactive
ARHGEF15 (Rho guanine nucleotide exchange factor 15),1,0.13,-0.01,0.11,0.27,inactive
ATR (ATR checkpoint kinase),1,1.01,0.78,1.11,1.13,inactive
RAG1 (recombination activating 1),1,0.57,0.53,0.67,0.51,inactive
CNTLN (centlein),1,2.95,2.31,3.36,3.18,active
WDR41 (WD repeat domain 41),1,-0.42,-0.21,-0.38,-0.69,inactive
EXT1 (exostosin glycosyltransferase 1),1,0.25,0.21,0.12,0.42,inactive
DHRS2 (dehydrogenase/reductase 2),1,1.11,0.81,1.48,1.05,inactive
RTP5 (receptor transporter protein 5 (putative)),1,-0.08,-0.31,-0.09,0.17,inactive
CBLN4 (cerebellin 4 precursor),1,-0.6,-0.85,-0.55,-0.41,inactive
RARS1 (arginyl-tRNA synthetase 1),1,0.35,0.33,0.38,0.36,inactive
PHKG2 (phosphorylase kinase catalytic subunit gamma 2),1,1.11,1.02,1.01,1.3,inactive
KCTD19 (potassium channel tetramerization domain containing 19),1,-0.76,-0.89,-0.9,-0.48,inactive
LOC107987397,1,0.32,0.68,0.01,0.28,inactive
DNAJC17 (DnaJ heat shock protein family (Hsp40) member C17),1,2.41,2.41,2.34,2.49,active
BNC2 (basonuclin zinc finger protein 2),1,-0.24,-0.04,-0.38,-0.31,inactive
LOC388006 (retired record),1,-1.53,-1.78,-1.47,-1.34,inactive
LOC392179 (retired record),1,0.61,0.44,0.97,0.44,inactive
"PCDHGC4 (protocadherin gamma subfamily C, 4)",1,-0.73,-1.1,-0.7,-0.38,inactive
FMO1 (flavin containing dimethylaniline monoxygenase 1),1,-0.63,-0.72,-0.75,-0.42,inactive
"NPHS1 (NPHS1 adhesion molecule, nephrin)",1,1.48,1.47,1.47,1.49,inactive
CLASRP (CLK4 associating serine/arginine rich protein),1,-0.37,-0.3,-0.4,-0.41,inactive
NOMO1 (NODAL modulator 1),1,-0.78,-0.65,-0.69,-1,inactive
DYNLRB1 (dynein light chain roadblock-type 1),1,1.11,1.34,0.9,1.07,inactive
WEE2-AS1 (WEE2 antisense RNA 1),1,-0.12,-0.09,-0.13,-0.12,inactive
LOC388727 (retired record),1,0.8,0.56,1.24,0.59,inactive
PITPNM2 (phosphatidylinositol transfer protein membrane associated 2),1,-0.46,-0.81,-0.77,0.2,inactive
TAF9 (TATA-box binding protein associated factor 9),1,0.52,0.45,0.31,0.81,inactive
LRRC74BNL (LRRC74B N-terminal like),1,0.45,0.48,0.19,0.68,inactive
"CEACAM22P (CEA cell adhesion molecule 22, pseudogene)",1,0.39,0.15,0.35,0.69,inactive
ZNG1E (Zn regulated GTPase metalloprotein activator 1E),1,0.3,0.13,0.49,0.29,inactive
TMSB4Y (thymosin beta 4 Y-linked),1,1.01,1.06,0.69,1.28,inactive
EPG5 (ectopic P-granules 5 autophagy tethering factor),1,-0.65,-1.31,-0.74,0.08,inactive
ADAMTS10 (ADAM metallopeptidase with thrombospondin type 1 motif 10),1,0.16,0.23,-0.05,0.31,inactive
CTSV (cathepsin V),1,0.25,0.26,0.31,0.18,inactive
"PCDHAC2 (protocadherin alpha subfamily C, 2)",1,-0.71,-0.66,-0.76,-0.72,inactive
BATF2 (basic leucine zipper ATF-like transcription factor 2),1,-0.92,-0.95,-0.89,-0.91,inactive
AHI1 (Abelson helper integration site 1),1,0.96,1.11,0.94,0.84,inactive
FZD6 (frizzled class receptor 6),1,0.27,0.4,0.1,0.31,inactive
B4GALNT2,1,0.37,-0.11,0.05,1.16,inactive
CAMSAP2,1,-0.28,-0.44,-0.28,-0.12,inactive
EIF2B4 (eukaryotic translation initiation factor 2B subunit delta),1,0.97,1.15,1.11,0.65,inactive
BMP7 (bone morphogenetic protein 7),1,-1.07,-0.85,-1.02,-1.36,inactive
STMN1 (stathmin 1),1,-0.33,-0.43,-0.2,-0.38,inactive
STMN1 (stathmin 1),2,-0.25,-0.15,-0.34,-0.25,inactive
ADAR (adenosine deaminase RNA specific),1,0.11,0.06,0,0.25,inactive
GABBR2 (gamma-aminobutyric acid type B receptor subunit 2),1,-1.42,-1.55,-1.57,-1.14,inactive
WNT5B (Wnt family member 5B),1,1.66,1.59,1.74,1.65,inactive
"ZNF271P (zinc finger protein 271, pseudogene)",1,0.02,0.1,0.07,-0.1,inactive
VPS39 (VPS39 subunit of HOPS complex),1,0.75,0.73,0.44,1.1,inactive
MXRA5 (matrix remodeling associated 5),1,-0.72,-0.54,-0.86,-0.76,inactive
GTPBP6 (GTP binding protein 6),1,-0.46,-0.57,-0.35,-0.45,inactive
FZD5 (frizzled class receptor 5),1,-0.54,-0.27,-0.52,-0.82,inactive
STK32A (serine/threonine kinase 32A),1,0.48,0.79,0.48,0.16,inactive
ECM2 (extracellular matrix protein 2),1,-0.55,-0.67,-0.52,-0.47,inactive
CSN3 (casein kappa),1,-0.73,-1.12,-0.65,-0.41,inactive

No new results follow: 5 of the entries above.
target,pool no.,mean z-score,"z-score, replicate A","z-score, replicate B","z-score, replicate C",activity call
ARHGEF15 (Rho guanine nucleotide exchange factor 15),1,0.13,-0.01,0.11,0.27,inactive
ATR (ATR checkpoint kinase),1,1.01,0.78,1.11,1.13,inactive
RAG1 (recombination activating 1),1,0.57,0.53,0.67,0.51,inactive
CNTLN (centlein),1,2.95,2.31,3.36,3.18,active
WDR41 (WD repeat domain 41),1,-0.42,-0.21,-0.38,-0.69,inactive
